Experiments:
[1] = test system: Pseudomonas aeruginosa PA-19660; experiment: MIC and MBC of aminoglycosides after pre-incubation of PA-19660 with DMSO or compound (175); conditions: for MBC / MIC: average of triplicate
[2] = test system: Staphylococcus aureus Newman; experiment: Antibiogram (disk inhibition zones), Staphylococcus aureus Newman; conditions: pre-incubation with compound (175) or (147); FIG. 8 right
[3] = test system: Pseudomonas aeruginosa PA-19660; experiment: Antibiogram (disk inhibition zones), PA-19660
P. aeruginosa strains = experiment: Bacterial growth kinetics in the presence of compound (175); conditions: compound (175) up to 100 μM
[4] = pre-incubation with 10 μM compound (175), 2 hours 37 °C

Compound | MBC [1, 4] | MIC [1, 4] | MBC ([1]; pre-incubation with 0.1% DMSO) | MIC ([1]; pre-incubation with 0.1% DMSO) | effect on antibiotic properties of five aminoglycosides (inhibition zones) [2] | effect on aminoglycoside growth inhibition (inhibition zones) ([3]; 10 μM compound (175), 2 hours pre-incubation, vs 0.1% DMSO, six determinations) | effect on susceptibility of PA-19660 to aminoglycosides ([1]; 10 μM compound (175)) | kinetic growth of bacterial strains (P. aeruginosa strains) | effect on aminoglycoside growth inhibition (inhibition zones) ([3]; compound (147) pre-incubation, three determinations)
[H]/N=C(/N)N[C@H]1[C@H](O)[C@@H](O)[C@H](O[C@@H]2O[C@@H](C)[C@](O)(C=O)[C@H]2O[C@@H]2O[C@@H](CO)[C@H](O)[C@@H](O)[C@@H]2NC)[C@@H](N/C(N)=N\[H])[C@@H]1O | 16.67 µg/mL | 8.33 µg/mL | 12.5 µg/mL | 6.25 µg/mL |  |  |  |  | 
NC[C@H]1O[C@H](O[C@H]2[C@H](O)[C@@H](O[C@H]3O[C@H](CO)[C@@H](O)[C@H](N)[C@H]3O)[C@H](N)C[C@@H]2N)[C@H](N)C[C@@H]1O | 0.326 µg/mL | 0.195 µg/mL | 0.195 µg/mL | 0.195 µg/mL |  |  |  |  | 
CCC(CC)Nc1cc(Nc2cccnn2)c2nnc(C3CC3)n2n1 |  |  |  |  | Neither compound (175) nor compound (147) had any influence | No noticeable differences | no effect | remained unchanged | 
NC[C@H]1O[C@H](O[C@H]2[C@H](O)[C@@H](O[C@H]3O[C@H](CO)[C@@H](O)[C@H](N)[C@H]3O)[C@H](N)C[C@@H]2N)[C@H](O)[C@@H](O)[C@@H]1O | 33.33 µg/mL | 20.8 µg/mL | 16.67 µg/mL | 12.5 µg/mL |  |  |  |  | 
Gentamicin sulfate | 0.521 µg/mL | 0.391 µg/mL | 0.521 µg/mL | 0.391 µg/mL |  |  |  |  | 
CCC(CC)CNc1cc(Nc2cccnn2)c2nnc(C(C)C)n2n1 |  |  |  |  | Neither compound (175) nor compound (147) had any influence |  |  |  | no impact

— patent publication US20260384439A1, “[1,2,4]-TRIAZOLO[4,3-B]PYRIDAZINE DERIVATIVES USEFUL AS A MEDICAMENT” (published 2026)
